# PMC12164071, “Lysine targeting covalent inhibitors of malarial kinase PfCLK3” (RSC Medicinal Chemistry, 2025)
# Legend:
# [1] = test system: 3D7 Plasmodium falciparum parasites; assay: Ex vivo P. falciparum (3D7) inhibition assay; type: cell-based; conditions: Pf3D7 parasites, 72 hours, errors SD, N ≥ 3
# HepG2 cells = assay: Human cell viability assay (resazurin); conditions: HepG2, 48 hours, errors SD, N ≥ 3
structure (smiles),measurement,setting,value
CCN(CC)Cc1ccc(OC)c(-c2cnc3[nH]cc(-c4ccc(C(=O)O)c(C(C)C)c4)c3c2)c1,pEC50 (3D7),[1],6.47± 0.09
same,EC50,[1]; read-out: EC50 (3D7),343 nM
same,pCC50 (HepG2),HepG2 cells,< 4.3
same,CC50,HepG2 cells; read-out: CC50 (HepG2),> 50000 nM
